Measured values from several laboratories, pooled; numbers as filed in NIAID ChemDB.

All rows: growth or infection tests; species: Hepatitis C virus

Two numbers with a dash give a range or band. ECn: concentration that inhibits the pathogen or its effect by n%. Neighbouring rows are from separate reports. Blank or dashed fields: not listed here.

structure,conditions,measure,cell line,mutations,strain,method,value
C=CC1CC1(NC(=O)[C@@H]1C[C@@H](OC(=O)Nc2cc(C)nn2-c2ccccc2)CN1C(=O)[C@@H](NC(=O)OC(C)(C)C)C(C)(C)C)C(=O)NS(=O)(=O)C1CC1,-,EC50,Huh7,-,1b,replicon,>10 µM
COCCN(C(=O)c1ccc(Cl)cc1F)c1cc(-c2ccc(-c3cc4ncccn4n3)cc2)sc1C(=O)O,-,EC50,-,-,1a,luciferase / replicon,0.05–0.1 µM
CNC(=O)c1c(-c2ccc(F)cc2)oc2cc(N3CCOCC3)c(OCc3cccc(C(=O)OC)c3)cc12,-,EC50,Huh7,-,-,replicon,<10 µM
CC(C)(C)OC(=O)N1CCN([C@@H](c2ccccc2C(F)(F)F)[C@@H](c2ccccc2C(F)(F)F)n2cc(Cn3cnc(=N)c4[nH]cnc43)nn2)CC1,-,EC90,-,-,-,absorbance,0.5 µM
C=CC[C@](C)(NC(=O)[C@H]1C[C@@H](Oc2nccc3c4c(ccc23)OCO4)CN1C(=O)[C@@H](NC(=O)OC(C)(C)C)C(C)(C)C)C(=O)NS(=O)(=O)C1CC1,-,EC50,Huh7,-,BMS,replicon,<0.1 µM
Nc1ncnc2c1c(-c1cccs1)cn2[C@@H]1O[C@H](CO)[C@@H](O)C1(F)F,-,EC50,HCV replicon,-,2a,replicon,4.82 µM
C=CC1CC1(NC(=O)[C@@H]1C[C@@H](OC(=O)Nc2ccccc2C(=O)OCCCC)CN1C(=O)[C@@H](NC(=O)OC(C)(C)C)C(C)(C)C)C(=O)NS(=O)(=O)C1CC1,-,EC50,Huh7,-,1b,replicon,0.1–1 µM
O=C(O)c1ccc(Cl)c(-c2cc(-c3cccc(NC(=O)C(Cl)Cl)c3)on2)c1Cl,-,EC50,-,-,-,replicon,>10 µM
CC(C)(c1ccc(F)cc1)c1noc(-c2cn(Cc3ccc(C(F)(F)F)cc3)c3cc(N4CCOCC4)c(F)cc3c2=O)n1,-,EC50,-,-,1b,replicon,>10 µM
C=CC[C@](C)(NC(=O)[C@H]1C[C@@H](Oc2nccc3sccc23)CN1C(=O)[C@@H](NC(=O)OC(C)(C)C)C(C)(C)C)C(=O)NS(=O)(=O)C1CC1,-,EC50,Huh7,-,BMS,replicon,0.1–1 µM
CC1CCC(C(=O)N(c2cc(-c3ccc(-c4cn5ccccc5n4)cc3)sc2C(=O)O)C2CCOCC2)CC1,-,EC50,-,-,1b,replicon / ELISA,0.01–0.049 µM
C=CC1CC1(NC(=O)[C@@H]1C[C@@H](OC(=O)Nc2ccc(Cl)cc2-c2cc(C)[nH]n2)CN1C(=O)[C@@H](NC(=O)OC(C)(C)C)C(C)(C)C)C(=O)NS(=O)(=O)C1CC1,-,EC50,Huh7,-,1b,replicon,>10 µM
CC(C)N(C(=O)c1ccc(Cl)cc1F)c1cc(-c2ccccc2)sc1C(=O)O,-,EC50,-,-,1a,luciferase / replicon,1–5 µM
O=C(N[C@@H](C(=O)N1CCC[C@H]1c1ncc(-c2ccc(-c3ccc(-c4cnc([C@@H]5CCCN5C(=O)[C@H](NC(=O)C5CC5)c5ccccc5)s4)cc3)cc2)s1)c1ccccc1)C1CC1,-,EC50,Huh7.5,Y93N,genotype 2a,luciferase / reporter gene,0.0518 µM
COc1cc2c(=O)c(-c3nnc(Cc4ccc(Cl)cc4)o3)cn(CC3CCCCC3)c2cc1OC,-,EC50,-,-,1b,replicon,<10 µM
C=CC1CC1(NC(=O)[C@@H]1C[C@@H](OC(=O)Nc2ccccc2C(C)=O)CN1C(=O)[C@@H](NC(=O)OC(C)(C)C)C(C)(C)C)C(=O)NS(=O)(=O)C1CC1,-,EC50,Huh7,-,1b,replicon,0.1–1 µM
COCC(C)N(C(=O)c1ccc(Cl)cc1F)c1cc(-c2ccc(-c3cc4ncccn4n3)cc2)sc1C(=O)O,-,EC50,-,-,1a,luciferase / replicon,0.01–0.05 µM
CCCCCCCCOc1ccc(N(C(C)=O)c2nc(-c3cccnc3)cs2)cc1,-,EC50,-,-,-,-,<1 µM
CC(C)N(C(=O)c1ccc(Cl)cc1Cl)c1cc(-c2ccc(-c3nn[nH]n3)cc2)sc1C(=O)O,-,EC50,-,-,1a,luciferase / replicon,>5 µM
C=CC[C@](C)(NC(=O)[C@H]1C[C@@H](Oc2nccc3cc(C)ccc23)CN1C(=O)[C@@H](NC(=O)OC(C)(C)C)C(C)(C)C)C(=O)NS(=O)(=O)C1CC1,-,EC50,Huh7,-,BMS,replicon,<0.1 µM
C=CC1CC1(NC(=O)[C@@H]1C[C@@H](OC(=O)Nc2cc(OC)ccc2-n2cccn2)CN1C(=O)[C@@H](NC(=O)OC(C)(C)C)C(C)(C)C)C(=O)NS(=O)(=O)C1CC1,-,EC50,Huh7,-,1b,replicon,0.1–1 µM
O=C(Nc1cccc(-c2cc(-c3c(Cl)cc(Cl)cc3OCCN3CCOCC3)no2)c1)C(Cl)Cl,-,EC50,-,-,-,replicon,>10 µM
Nc1ncnc2c1c(-c1ccsc1)cn2[C@@H]1O[C@H](CO)[C@@H](O)C1(F)F,-,EC50,HCV replicon,-,2a,replicon,7.38 µM
O=C(Nc1cccc(-c2cc(-c3c(Cl)cccc3Cl)on2)c1)C(Cl)Cl,-,EC50,-,-,-,replicon,≤10 µM
CN1CCN(c2cc3c(cc2F)c(=O)c(-c2noc(C4(c5ccccc5)CC4)n2)cn3Cc2ccc(C(F)(F)F)cc2F)CC1,-,EC50,-,-,1b,replicon,>10 µM
C=C[C@@H]1C[C@@]1(NC(=O)[C@H]1C[C@@H](Oc2nnc(OC(C)C)c3ccccc23)CN1C(=O)[C@@H](N)C(C)(C)C)C(=O)NS(=O)(=O)C1CC1,-,EC50,Huh7,-,BMS,replicon,0.1–1 µM
CC1CCC(C(=O)N(c2cc(-c3ccc(-c4cc5nccc(N)n5n4)cc3)sc2C(=O)O)C2CCOCC2)CC1,-,EC50,-,-,1b,replicon / ELISA,0.001–0.0049 µM
O=c1c(-c2noc(Cc3ccccc3)n2)cn(Cc2ccc(C(F)(F)F)cc2F)c2ccccc12,-,EC50,-,-,1b,replicon,>10 µM
CC1CCC(C(=O)N(c2cc(-c3ccc(-c4cc5ncccn5n4)cc3)sc2C(=O)O)C2CCC(O)CC2)CC1,-,EC50,-,-,1a,replicon / ELISA,0.01–0.049 µM
CCNS(=O)(=O)c1cc2oc(-c3ccc(F)cc3)c(C(=O)NC)c2cc1OC(C)C,-,EC50,Huh7,-,-,replicon,<10 µM
C=CC1CC1(NC(=O)[C@@H]1C[C@@H](OC(=O)Nc2ccccc2Oc2ccccc2)CN1C(=O)[C@@H](NC(=O)OC(C)(C)C)C(C)(C)C)C(=O)NS(=O)(=O)C1CC1,-,EC50,Huh7,-,1b,replicon,0.1–1 µM
CC(C)N(C(=O)c1ccc(Cl)cc1Cl)c1cc(-c2ccc(-c3cn4ccsc4n3)cc2)sc1C(=O)O,-,EC50,-,-,1a,luciferase / replicon,0.1–0.5 µM
C=CC1CC1(NC(=O)[C@@H]1C[C@@H](OC(=O)Nc2nc(Cl)c(Cl)nc2C(=O)OC)CN1C(=O)[C@@H](NC(=O)OC(C)(C)C)C(C)(C)C)C(=O)NS(=O)(=O)C1CC1,-,EC50,Huh7,-,1b,replicon,>10 µM
CNC(=O)c1c(-c2ccc(F)cc2)oc2cc(C(C)(C)NC(C)=O)c(OC)cc12,-,EC50,Huh7,-,-,replicon,<1 µM
CCCCCCCCOc1ccc(N(C(N)=O)c2nc(-c3cccnc3)cs2)cc1C(F)(F)F,-,EC50,-,-,-,-,<1 µM
CCNC(=O)c1ccc(N2CCN(S(=O)(=O)c3ccc(OC(F)(F)F)cc3)C(C(=O)NCc3ccc(OC(F)(F)F)cc3)C2)nn1,-,EC50,-,-,1b,replicon,0.007 µM
CC(C)CC[C@@]1(C)C(=O)C(C2=NS(=O)(=O)c3cc(NS(C)(=O)=O)ccc3N2)=C(O)c2ccccc21,-,EC50,Huh7,-,3a,luciferase,3.879 µM
CCc1ccc(S(=O)(=O)N2CCN(c3cc(OC)nc(OC)n3)CC2C(=O)NCc2ccc(OC)cc2)cc1,-,EC50,-,-,Mutant NS5B Y452H,replicon,19 µM
C=CC1CC1(NC(=O)[C@@H]1C[C@@H](OC(=O)NCc2ccccc2C)CN1C(=O)[C@@H](NC(=O)OC(C)(C)C)C(C)(C)C)C(=O)NS(=O)(=O)C1CC1,-,EC50,Huh7,-,1b,replicon,1–10 µM
O=C(Nc1cccc(-c2cc(-c3cc(C(F)(F)F)ccc3Cl)no2)c1)C(Cl)Cl,-,EC50,-,-,-,replicon,>10 µM
C=CC[C@](C)(NC(=O)[C@H]1C[C@@H](Oc2nc(-c3ccco3)c(OC)c3ccccc23)CN1C(=O)[C@@H](NC(=O)OC(C)(C)C)C(C)(C)C)C(=O)NS(=O)(=O)C1CC1,-,EC50,Huh7,-,BMS,replicon,0.1–1 µM
CNC(=O)c1c(-c2ccc(F)cc2)oc2cc(N3CCC(O)C3)c(OC(C)C)cc12,-,EC50,Huh7,-,-,replicon,<1 µM
O=C(Nc1cccc(-c2cc(-c3c(F)ccc(F)c3Cl)no2)c1)C(Cl)Cl,-,EC50,-,-,-,replicon,≤10 µM
Nc1ncnc2c1c(-c1ccsc1)cn2[C@@H]1O[C@H](CO)[C@@H](O)[C@H]1F,-,EC50,HCV replicon,-,1a,replicon,6.52 µM
CNC(=O)c1c(-c2ccc(Cl)s2)oc2ccc(OC)cc12,-,EC50,Huh7,-,-,replicon,<10 µM
Nc1ncnc2c1ncn2[C@@H]1O[C@H](CO)[C@@H](F)[C@@H]1F,-,EC90,Huh7,-,-,replicon,10 µM
Nc1ncnc2c1c(-c1ccco1)cn2[C@@H]1O[C@H](CO)[C@@H](O)C1(F)F,-,EC50,HCV replicon,-,1b,replicon,4.93 µM
CN1CCN(c2cc3c(cc2F)c(=O)c(-c2noc(Cc4ccc(F)cc4)n2)cn3Cc2ccc(Cl)nc2)CC1,-,EC50,-,-,1b,replicon,<10 µM
Cc1cccc(C)c1-c1cc(-c2cccc(NC(=O)C(Cl)Cl)c2)on1,-,EC50,-,-,-,replicon,≤10 µM
CCOCCN(C(=O)C1CCC(C)CC1)c1cc(-c2ccc(-c3cc4nccc(N)n4n3)cc2)sc1C(=O)O,-,EC50,-,-,1b,replicon / ELISA,0.001–0.0049 µM
CNC(=O)c1c(-c2ccc(F)cc2)oc2cc(N(C(C)c3nn[nH]n3)S(C)(=O)=O)c(OC(C)C)cc12,-,EC50,Huh7,-,-,replicon,<1 µM
Nc1ncnc2c1c(I)cn2[C@@H]1O[C@H](CO)[C@@H](O)[C@H]1F,-,EC50,HCV replicon,-,1a,replicon,1.3 µM
Nc1ncnc2c1ncn2[C@H]1O[C@H](CO)[C@@H](F)[C@@H]1F,-,EC50,Huh7,-,-,replicon,>10 µM
CCOCCN(C(=O)C1CCC(C)CC1)c1cc(-c2ccc(-c3cc4ncccn4n3)cc2)sc1C(=O)O,-,EC50,-,-,1b,replicon / ELISA,0.005–0.0099 µM
C=CC[C@](C)(NC(=O)[C@H]1C[C@@H](Oc2nc(-c3nccs3)c(OC)c3ccccc23)CN1C(=O)[C@@H](NC(=O)OC(C)(C)C)C(C)(C)C)C(=O)NS(=O)(=O)C1CC1,-,EC50,Huh7,-,BMS,replicon,<0.1 µM
COCCN(C(=O)C1CCC(C)CC1)c1cc(-c2ccc(-c3cn4ccsc4n3)cc2)sc1C(=O)O,-,EC50,-,-,1b,replicon / ELISA,0.01–0.049 µM
CCCCCCCCOc1ccc(N(C(=O)CNC(=O)OC(C)(C)C)c2nc(-c3cccnc3)c(F)s2)cc1C(F)(F)F,-,EC50,-,-,-,-,<1 µM
C=C[C@@H]1C[C@]1(NC(=O)[C@@H]1C[C@@H](Nc2nccc3ccccc23)CN1C(=O)[C@@H](NC(=O)OC)C(C)(C)C)C(=O)NS(=O)(=O)C1CC1,-,EC50,Huh7,-,BMS,replicon,0.1–1 µM
CC1CCC(C(=O)N(CC2CCOCC2)c2cc(-c3ccc(-c4cn5ccsc5n4)cc3)sc2C(=O)O)CC1,-,EC50,-,-,1a,replicon / ELISA,0.001–0.0049 µM
CCc1ccc2oc(-c3ccccc3)c(C(=O)NC)c2c1,-,EC50,Huh7,-,-,replicon,<30 µM
CCC(=O)c1c(-c2ccc(F)cc2)oc2cc(N(CCO)S(C)(=O)=O)c(C3CC3)cc12,-,EC50,Con-1,-,-,luciferase,0.0077 µM
COc1c(C(C)(C)C)cc(-n2ccc(=O)[nH]c2=O)c2ncc(-c3ccc(NS(C)(=O)=O)cc3)cc12,40% human serum,EC90,Huh7,-,GT 1a-H77,replicon,0.025 µM
CCCCOc1ccc(N(C(N)=O)c2nc(-c3ccc(C)nc3)cs2)cc1C(F)(F)F,-,EC50,-,-,-,-,<1 µM
CC1CCC(C(=O)N(c2cc(-c3ccccc3)sc2C(=O)O)C2CCOCC2)CC1,-,EC50,-,-,1a,replicon / ELISA,0.1–0.49 µM
C=CC1CC1(NC(=O)[C@@H]1C[C@@H](OC(=O)Nc2cccc(OC)c2)CN1C(=O)[C@@H](NC(=O)OC(C)(C)C)C(C)(C)C)C(=O)NS(=O)(=O)C1CC1,-,EC50,Huh7,-,1b,replicon,1–10 µM